In patent US8748411B2, “Antineoplastic compounds and pharmaceutical compositions thereof” (Centro de Ingenieria Genetica y Biotechnologia, priority 2005, dated 2014) one finds IC50 data, which are given here for 1 compound.

Chains of the proteins cited; added tags and fusions are not shown. Lines headed by an entry give the natural chain unless they say otherwise; changes in a name come on top.
UniProt P03129: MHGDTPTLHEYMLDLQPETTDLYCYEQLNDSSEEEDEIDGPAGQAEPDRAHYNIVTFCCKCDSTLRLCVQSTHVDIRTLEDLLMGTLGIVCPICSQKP

Each structure is given as a SMILES string.

This assay deals with oncoprotein E7 from Human Papilloma Virus type 16 as GST fusion protein (E7-GST), phosphorylated by CK2 enzyme (Human papillomavirus type 16, UniProt P03129). The settings on record: read-out: Inhibitory concentration 50 (IC50); E7-GST preincubated 1 h at 37° C. with compound; reaction 40 minutes at 37° C., 100 μM ATP.

With `NNC(=O)NP(=O)(NC(=O)NN)NC(=O)NN`, the IC50 worked out at 22 nM.
